Anti-infective test results gathered from many reports (values: NIAID ChemDB through PubChem).

Shared fields: growth or infection tests; agent: Herpes simplex virus 1; cell line: BSC-1; read-out: EC50

Blank or dashed fields: not listed here. Conditions beyond the fields shown may differ between rows. ECn is the concentration giving n% inhibition of infection, replication or growth.

compound	strain	method	result
CCSCc1c(Cl)nc2ccc(Cl)cn12	KOS	ELISA	20 µM
Nc1nc(NC2CC2)c2ncn(C=C3CC3CO)c2n1		ELISA	15 µM
Cn1cc(NC(=O)c2cc(NC(=O)c3cc(NC=O)cn3C)cn2C)cc1C(=O)NCC(=N)N		plaque count	<200 µg/mL
Cc1nnc2nc3c(nn12)c1ccccc1n3C		plaque count	<60 µg/mL
CC(CC(=N)N)NC(=O)c1cc(NC(=O)c2cc(NC(=O)c3cc([N+](=O)[O-])cn3C)cn2C)cn1C		plaque count	<200 µg/mL
CCCCNc1c(C#N)c2cc(Cl)c(Cl)cc2n1[C@@H]1O[C@H](CO)[C@@H](O)[C@H]1O		ELISA	>100 µM
CC(CC#N)NC(=O)c1cc(NC(=O)c2cc(NC(=O)c3cc(NC=O)cn3C)cn2C)cn1C		plaque count	<200 µg/mL
CN1N=C(N)c2cn([C@@H]3O[C@H](CO)[C@@H](O)[C@H]3O)c3nc(Cl)nc1c23	KOS	ELISA	>100 µM
Nc1ncnc2c1ncn2[C@H]1C[C@@]12C[C@H]2CO		ELISA	>100 µM
CNc1c(C=O)c2cc(Cl)c(Cl)cc2n1[C@@H]1O[C@H](CO)[C@@H](O)[C@H]1O		ELISA	35 µM
Cn1cc(NC(=O)c2cc(NC(=O)c3cc([N+](=O)[O-])cn3C)cn2C)cc1C(=O)Nc1ccc(C(=N)N)cc1		plaque count	<200 µg/mL
Nc1ncnc2c1ncn2[C@H]1C[C@]12C[C@H]2CO		ELISA	70 µM
COc1c(C=O)c2cc(Cl)c(Cl)cc2n1[C@@H]1O[C@H](CO)[C@@H](O)[C@H]1O		ELISA	20 µM
Nc1ncnc2c1ncn2[C@H]1C[C@]12C[C@@H]2CO		ELISA	>100 µM
Cn1cc(NC=O)cc1C(=O)Nc1cc(C(=O)Nc2cc(C(=O)Nc3ccc(C(=N)N)cc3)n(C)c2)n(C)c1		plaque count	<200 µg/mL
Nc1ncnc2c1ncn2/C=C1\[C@H](CO)C1(F)F		ELISA	70 µM
Nc1ncnc2c1ncn2[C@H]1C[C@]12C[C@H]2CO			70 µM
CN1N=C(N)c2cn([C@@H]3O[C@H](CO)[C@@H](O)[C@H]3O)c3nc(N)nc1c23	KOS	ELISA	>100 µM
CCCn1cnc(=N)c2[nH]cnc21		plaque count	>50 µg/mL
Nc1nc2c(ncn2/C=C2/[C@H](CO)C2(F)F)c(=O)[nH]1			>100 µM
CC(=O)n1c(Cl)c([C@@H]2O[C@H](CO)[C@@H](O)[C@H]2O)c2cc(Cl)c(Cl)cc21		ELISA	>100 µM
Nc1nc2c(ncn2COC(CO)CO)c(=O)[nH]1	KOS	ELISA	3.5 µM
CC(C)Nc1c(C=O)c2cc(Cl)c(Cl)cc2n1[C@@H]1O[C@H](CO)[C@@H](O)[C@H]1O		ELISA	35 µM
O=c1[nH]c(=O)n([C@H]2C[C@H](O)[C@@H](CO)O2)cc1I	KOS	cytopathic effect	0.4 µg/mL
Cn1cc(NC(=O)c2cc(NC(=O)c3cc([N+](=O)[O-])cn3C)cn2C)cc1C(=O)Nc1cccc(C(=N)N)c1		plaque count	<200 µg/mL
CN(C)c1c(C#N)c2cc(Cl)c(Cl)cc2n1[C@@H]1O[C@H](CO)[C@@H](O)[C@H]1O		ELISA	>100 µM
Cn1c(Cl)c([C@@H]2O[C@H](CO)[C@@H](O)[C@H]2O)c2cc(Cl)c(Cl)cc21		ELISA	>100 µM
OCCSCc1c(Cl)nc2ccc(Cl)cn12	KOS	ELISA	>100 µM
Cn1cc(NC(=O)c2cc([N+](=O)[O-])cn2C)cc1C(=O)Nc1cc(C(=O)Nc2ccccc2C(=N)N)n(C)c1		plaque count	<200 µg/mL
Nc1nc2c(ncn2[C@H]2C[C@]23C[C@H]3CO)c(=O)[nH]1		ELISA	>100 µM
Nc1ncnc2c1ncn2/C=C1/CC1(CO)CO		ELISA	>100 µM
Nc1ncnc2c1c(I)cn2COCCO		plaque count	100 µM
CCc1cn([C@H]2C[C@H](O)[C@@H](COP(=O)(O)O)O2)c(=O)[nH]c1=O	B2006 (TK-)	cytopathic effect	>820 µg/mL
Cc1nc2c3c(cn([C@@H]4O[C@H](CO)[C@@H](O)[C@H]4O)c3n1)C(N)=NN2C	KOS	ELISA	>100 µM
Nc1ncnc2c1ncn2[C@H]1C[C@@]12C[C@@H]2CO		ELISA	>100 µM
Nc1ncnc2c1ncn2/C=C1\[C@H](CO)C1(F)F			70 µM
OCCSCc1c(Cl)nc2cc(Cl)c(Cl)cn12	KOS	ELISA	60 µM
CCCCn1cnc(=N)c2[nH]cnc21		plaque count	>50 µg/mL
COC(=O)C(Cc1c[nH]c2ccccc12)NP(=O)(O)OCC1C/C1=C/n1cnc2c(N)ncnc21		ELISA	15 µM
Cn1c(=O)ccn(/C=C2/CC2(CO)CO)c1=O		ELISA	10 µM
N=c1ncn(Cc2ccc(Cl)cc2Cl)c2nc[nH]c12		plaque count	>25 µg/mL
Nc1ncnc2c1ncn2[C@@H]1O[C@H](CO)[C@@H](O)[C@@H]1O	KOS	cytopathic effect	60 µg/mL

A second listing of 3 rows from above:

Cn1cc(NC(=O)c2cc([N+](=O)[O-])cn2C)cc1C(=O)Nc1cc(C(=O)Nc2ccccc2C(=N)N)n(C)c1 ; method: plaque count ; result: <200 µg/mL
CNc1c(C=O)c2cc(Cl)c(Cl)cc2n1[C@@H]1O[C@H](CO)[C@@H](O)[C@H]1O ; method: ELISA ; result: 35 µM
CC(CC(=N)N)NC(=O)c1cc(NC(=O)c2cc(NC(=O)c3cc([N+](=O)[O-])cn3C)cn2C)cn1C ; method: plaque count ; result: <200 µg/mL